A mixed list of measured activities; the numbers were collected in NIAID ChemDB.

Shared fields: tests on isolated targets; protein: CCR5; method: radiometric; endpoint: IC50

ICn is the concentration giving n% inhibition. Conditions beyond the fields shown may differ between rows.

SMILES | value
N#Cc1ccc(NC(=O)N(CCCN2CCC(Cc3ccc(F)cc3)CC2)c2ccccc2)cc1 | 0.015 µM
CCCCOCCOc1ccc(-c2ccc3c(c2)C=C(C(=O)Nc2ccc(C(O)c4c(C)ccc[n+]4[O-])cc2)CCN3CC(C)C)cc1 | 0.13 µM
CS(=O)(=O)N1CCC(C(=O)N(CCCN2CCC(Cc3ccc(C(F)(F)F)cc3)CC2)c2ccc(Cl)c(Cl)c2)CC1 | 0.0087 µM
Cc1ccc(-c2ccc3c(c2)C=C(C(=O)Nc2ccc(C[N+](C)(C)C4CCOCC4)cc2)CCC3)cc1 | 0.0014 µM
Cc1ccc(-c2ccc3c(c2)C=C(C(=O)Nc2ccc(C(O)c4cccc[n+]4[O-])cc2)CCO3)cc1 | 0.43 µM
CCCCOCCOc1ccc(-c2ccc3c(c2)C=C(C(=O)Nc2ccc([S@](=O)Cc4cncn4CCC)cc2)CCN3CCC)cc1 | 0.0083 µM
O=C(O)c1ccc(NC(=O)N(CCCN2CCC(Cc3ccc(F)cc3)CC2)c2ccccc2)cc1 | 0.35 µM
CCCCOCCOc1ccc(-c2ccc3c(c2)C=C(C(=O)Nc2ccc(CN(C)C4CCOCC4)cc2)CCN3Cc2ccccc2)cc1 | 0.0053 µM
CCCCOCCOc1ccc(-c2ccc3c(c2)C=C(C(=O)Nc2ccc([C@H](O)c4cccc[n+]4[O-])cc2)CCN3Cc2ccccc2)cc1 | 0.02 µM
CCCCOCCOc1ccc(-c2ccc3c(c2)C=C(C(=O)Nc2ccc(S(=O)Cc4cncn4CCC)cc2)CCN3CCC)cc1 | 0.0043 µM
O=C(Nc1ccc(Cl)cc1)N(CCCN1CCC(Cc2ccccc2)CC1)c1ccc(Cl)c(Cl)c1 | 0.062 µM
CS(=O)(=O)N1CCC(C(=O)N(CCCN2CCC(Cc3ccc(N)cc3)CC2)c2ccc(Cl)c(Cl)c2)CC1 | 0.0092 µM
Cc1ccc(-c2ccc3c(c2)C=C(C(=O)N=C2C=CC(=C4C=CC=CN4O)C=C2)CCO3)cc1 | >10 µM
O=C(Cc1ccccc1)N(CCCN1CCC(Cc2ccccc2)CC1)c1ccccc1 | 0.45 µM
O=C(OCc1ccccc1)N1CCCC(C(=O)N(CCCN2CCC(Cc3ccccc3)CC2)c2ccccc2)C1 | 1.2 µM
CCCCOCCOc1ccc(-c2ccc3c(c2)C=C(C(=O)Nc2ccc([C@H](O)c4cccc[n+]4[O-])cc2)CCN3CC2CC2)cc1 | 0.034 µM
CCCc1ccc(-c2ccc3c(c2)C=C(C(=O)Nc2ccc(CN(C)C4CCOCC4)cc2)CCS3(=O)=O)cc1 | 0.033 µM
CCCCOCCOc1ccc(-c2ccc3c(c2)C=C(C(=O)Nc2ccc([S@@](=O)Cc4cncn4CCC)cc2)CCN3CC(C)C)cc1 | 0.0019 µM
CCCCOCCOc1ccc(-c2ccc3c(c2)C=C(C(=O)Nc2ccc([C@@H](O)c4cccc[n+]4[O-])cc2)CCS3(=O)=O)cc1 | 3.6 µM
O=C(Nc1ccc(C(F)(F)F)cc1)N(CCCN1CCC(Cc2ccc(F)cc2)CC1)c1ccccc1 | 0.014 µM
CCCCOCCOc1ccc(-c2ccc3c(c2)C=C(C(=O)Nc2ccc(S(=O)Cc4ncccn4)cc2)CCN3CC(C)C)cc1 | 0.1 µM
O=C(NC1CCCCC1)N(CCCN1CCC(Cc2ccccc2)CC1)c1ccccc1 | 0.024 µM
CCCCOCCOc1ccc(-c2ccc3c(c2)C=C(C(=O)Nc2ccc(CN(C)C4CCOCC4)cc2)CCN3Cc2ccnn2C)cc1 | 0.01 µM
CCCCOCCOc1ccc(-c2ccc3c(c2)C=C(C(=O)Nc2ccc([C@H](O)c4cccc[n+]4[O-])cc2)CCN3CCC)cc1 | 0.038 µM
O=C(c1ccccc1)N(CCCN1CCC(Cc2ccccc2)CC1)c1ccccc1 | 2.3 µM
CCCCOCCOc1ccc(-c2ccc3c(c2)C=C(C(=O)Nc2ccc([C@H](O)c4cccc[n+]4[O-])c(C(F)(F)F)c2)CCN3CC(C)C)cc1 | 0.0072 µM
CCCCOCCOc1ccc(-c2ccc3c(c2)C=C(C(=O)Nc2ccc(S(=O)Cc4cnnn4CCC)cc2)CCN3CC(C)C)cc1 | 0.012 µM
CC(=O)N1CCC(C(=O)N(CCCN2CCC(Cc3ccccc3)CC2)c2ccc(Cl)c(Cl)c2)CC1 | 0.0019 µM
CCCCOCCOc1ccc(-c2ccc3c(c2)C=C(C(=O)Nc2ccc(S(=O)Cc4cncn4CCC)cc2)CCN3CC(C)C)cc1 | 0.0036 µM
CN(C(=O)N(CCCN1CCC(Cc2ccccc2)CC1)c1ccccc1)c1ccccc1 | 6.6 µM
CCN1CCC(C(=O)Nc2ccc(CN(C)C3CCOCC3)cc2)=Cc2cc(-c3ccc(N4CCOCC4)cc3)ccc21 | 0.051 µM
CSc1ccc(CC2CCN(CCCN(C(=O)C3CCN(S(C)(=O)=O)CC3)c3ccc(Cl)c(Cl)c3)CC2)cc1 | 0.0031 µM

A second listing of 4 rows from above:

SMILES | value
CCCCOCCOc1ccc(-c2ccc3c(c2)C=C(C(=O)Nc2ccc([C@@H](O)c4cccc[n+]4[O-])cc2)CCS3(=O)=O)cc1 | 3.6 µM
O=C(O)c1ccc(NC(=O)N(CCCN2CCC(Cc3ccc(F)cc3)CC2)c2ccccc2)cc1 | 0.35 µM
O=C(Nc1ccc(C(F)(F)F)cc1)N(CCCN1CCC(Cc2ccc(F)cc2)CC1)c1ccccc1 | 0.014 µM
Cc1ccc(-c2ccc3c(c2)C=C(C(=O)Nc2ccc(C[N+](C)(C)C4CCOCC4)cc2)CCC3)cc1 | 0.0014 µM